Laboratory results taken from patent US20260069679A1.

Molecular target: Original MERS SS ΔG3Loop NPs
Experiment: BLI sensorgrams, six concentrations (not given)

For G4 (antibody), the Kd was 3 pM.
